Measured values as given in PubChem BioAssay AID540299 (ICCB-Longwood Screening Facility, Harvard Medical School, 2011).
Only a part is listed here, and it is no random draw. The source made the active and inactive calls. No stated cut-off is given here; in the data, active means inhibition above about 21% (passing the limit was not always enough); inactive means the rest.

Amino acid sequences for entries named in this document (tags omitted). A change or cut given only in a name is not applied to a line headed by its entry.
UniProt P9WNP5: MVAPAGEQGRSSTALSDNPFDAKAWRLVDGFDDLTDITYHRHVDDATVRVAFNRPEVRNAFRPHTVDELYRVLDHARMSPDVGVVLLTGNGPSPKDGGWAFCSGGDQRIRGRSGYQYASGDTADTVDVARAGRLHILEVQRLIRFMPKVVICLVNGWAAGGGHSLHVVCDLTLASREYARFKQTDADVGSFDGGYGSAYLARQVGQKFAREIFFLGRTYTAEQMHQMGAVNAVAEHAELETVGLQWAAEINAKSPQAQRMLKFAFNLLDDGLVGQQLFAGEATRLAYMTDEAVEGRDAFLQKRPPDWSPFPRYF

Target: 1,4-dihydroxy-2-naphthoyl-CoA synthase (Mycobacterium tuberculosis (strain ATCC 25618 / H37Rv)) (UniProt P9WNP5)
Assay: M. tuberculosis MenB inhibitors, primary screen, biochemical, absorbance (AID 540299)
Details: MenB enzyme assay, absorbance read-out; hits give high values; concentration not given here

| SMILES | inhibition |
| --- | --- |
| CCOP(OCC)N1CCOCC1 | active: 28.2% |
